# Target: monoclonal antibody M75 (MAb M75), secreted by hybridoma VU-M75, ATCC HB 11128
# Assay: competition ELISA (competitor against immobilized GST-MN for M75)
substance,measurement,value
"complete MN/CA IX protein (MN/CA IX+), from Vero cells infected with vaccinia virus carrying the complete coding region of MN/CA IX (from UniProt Q16790 38-459) (enzyme)",fold more active than the smallest serologically active peptide (molar concentration),1.5e+08 fold
same,fold more active than the smallest serologically active peptide (weight/volume concentration),100000 fold

# — patent publication US7910549
